Measured values from several laboratories, pooled; numbers as filed in NIAID ChemDB.

Common to all: tests in culture; species: Mycobacterium tuberculosis

a–b is a range or a potency band. MIC bound: limit read from a one-dose screen. MIC50, MIC90 and the like: level of inhibition, or share of isolates inhibited. ECn is the concentration giving n% inhibition of infection, replication or growth. Inhibition is in % at the dose shown (toxicity tests: loss of growth or viability). An empty or dashed field is not shown. Rows are shuffled and stem from different studies.

| smiles | strain | dose | read-out | changes | read by | value |
|---|---|---|---|---|---|---|
| Clc1ccc(C2Cc3nc4ccc(Cl)cc4c(-c4ccccc4)c3S2)c(Cl)c1 | MDR | - | MIC | - | agar | 1.76 µM |
| C[N+]12CN3CN(C1)S(=O)(=O)N(C3)C2.[I-] | H37Rv | 12.5 µg/mL | inhibition | - | BACTEC | 21% |
| Clc1ccc(C2Cc3nc4ccccc4c(-c4ccccc4)c3S2)c(Cl)c1 | H37Rv | - | MIC | - | agar | 3.82 µM |
| CN(C)C/C=C(/c1ccc(-c2ccc(Br)cc2)cc1)c1cccs1 | ATCC 27294 | - | MIC | - | - | 20.2 µM |
| Nc1ncc(Cl)c2c1ncn2[C@@H]1O[C@H](CO)[C@@H](O)[C@H]1O | SRICK1 | - | MIC | - | - | >100 µg/mL |
| C[C@H]1COc2c(N3CCc4ccccc4C3C(=O)NC(C)(C)C)c(F)cc3c(=O)c(C(=O)O)cn1c23 | - | - | MIC99 | - | agar | 3.16 µM |
| C[C@@H]1CN(c2nc3sc(C(=O)NC4CC5(CC5)C4)cc3s2)CCN1C1COC1 | H37Rv | - | MIC | - | visual reading | 1.32 µM |
| N/C(=N\N=C\c1ccc(Br)cc1)c1ccncc1 | 1342 | - | MIC | - | - | 32 µg/mL |
| C[C@H]1C[C@@H]1NC(=O)c1cc2sc(N3CCOC(C)(C)C3)nc2s1 | H37Rv | - | MIC | - | visual reading | 3.44 µM |
| COC(=O)N[C@@H]1[C@H](C)O[C@@H](OC2C/C=C(\C)[C@H]3C=C[C@H]4[C@H](OC5C[C@@H](OC6C[C@@H](O)[C@@H](OC7C[C@@H](O)[C@@H](OC)[C@H](C)O7)[C@H](C)O6)[C@@H](O)[C@H](C)O5)[C@H](C)C[C@@H](C)[C@@H]4[C@@]3(C)/C(O)=C3/C(=O)OC4(C[C@H](C)C(CO)=C[C@H]4/C=C\2C)C3=O)C[C@@]1(C)[N+](=O)[O-] | H37Ra | - | MIC90 | - | MTT | 7.8 µM |
| Cc1cc(-c2cc3c(cc2F)c(=O)c(C(=O)O)cn3C2CC2)cc(C)n1 | 1620-6 | - | MIC | - | - | 1 µg/mL |
| C[C@@H]1CN(c2nc3sc(C(=O)N[C@H]4C[C@@H]4C)cc3s2)CCN1C1COC1 | H37Rv | - | MIC | - | visual reading | 3.4 µM |
| C/C(=N\NC(=O)C(N)=O)c1c(O)cc(C)oc1=O | H37Rv | 12.5 µg/mL | inhibition | - | BACTEC | -2% |
| CCOC(=O)c1nc(C(C)C)[nH]c1C(C)C | H37Rv | 6.25 µg/mL | inhibition | - | - | 5% |
| Clc1ccc(C2Cc3nc4ccc(Cl)cc4c(-c4ccccc4)c3S2)cc1 | H37Rv | - | MIC | - | agar | 3.82 µM |
| CCOC(=O)/C=C/c1ccc(OC)cc1 | BTB08-283 | - | MIC | - | resazurin | 485 µM |
| Cc1nnc2sc(-c3cccc(Cl)c3)nn2c1=O | H37Rv | 6.25 µg/mL | inhibition | - | resazurin | 1% |
| CC1COc2c(N3CCC4(CC3)OCCO4)c(F)c([N+](=O)[O-])c3c(=O)c(C(=O)O)cn1c23 | - | - | MIC99 | - | agar | 0.21 µM |
| CO[C@H]1/C=C/O[C@@]2(C)Oc3c(C)c(O)c4c(O)c(c(/C=N/N5CCN(C/C=C/c6ccccc6)CC5)c(O)c4c3C2=O)NC(=O)/C(C)=C\C=C\[C@H](C)[C@H](O)[C@@H](C)[C@@H](O)[C@@H](C)[C@H](OC(C)=O)[C@@H]1C | MTB13 (INH-R) | - | MIC | - | - | ≤0.06 µg/mL |
| COc1ccc(-n2[nH]c(C)c(N=Nc3ccc(-c4n[nH]c(=S)n4C)cc3)c2=O)cc1 | H37Rv | - | MIC | - | - | >6.25 µg/mL |
| COc1cccc(/C=N/N=C(\N)c2ccncc2)c1OC | H37Rv | - | MIC | - | - | 256 µg/mL |
| CN[C@@H]1[C@H](O[C@H]2[C@H](O[C@H]3[C@H](O)[C@@H](O)[C@H](N=C(N)N)[C@@H](O)[C@@H]3N=C(N)N)O[C@@H](C)[C@]2(O)C=O)O[C@@H](CO)[C@H](O)[C@H]1O | Praha 131 | - | MIC99 | MDR | broth dilution | >32 µM |
| O=C(Nc1cccc([N+](=O)[O-])c1)c1ccccc1O | My 331/88 | - | MIC | - | - | 16 µM |
| CSC(=S)N/N=C(/C)c1ccco1 | ETA-R | - | MIC | - | - | 1.6 µg/mL |
| CO[C@H]1/C=C/O[C@@]2(C)Oc3c(C)c(O)c4c(O)c(c(/C=N/N5CCN(C)CC5)c(O)c4c3C2=O)NC(=O)/C(C)=C\C=C\[C@H](C)[C@H](O)[C@@H](C)[C@@H](O)[C@@H](C)[C@H](OC(C)=O)[C@@H]1C | - | - | MIC99 | 516Phe | - | >640 µg/mL |
| C[C@@H]1CN(c2nc3sc(C(=O)N[C@H]4C[C@@H]4C)cc3s2)CCN1C(=O)C1CC1 | H37Rv | - | MIC | - | visual reading | 2.85 µM |
| CC(C)N=c1cc2n(-c3ccc(Cl)cc3)c3ccccc3nc-2cc1Nc1ccc(Cl)cc1 | Praha 4 | - | MIC99 | MDR | broth dilution | 0.5 µM |
| C/C(O)=C(\C=N\C(=S)Nc1ccc(S(=O)(=O)Nc2nccs2)cc1)C(=O)Nc1ccccc1C | H37Rv | - | MIC bound | - | resazurin | >6.25 µg/mL |
| CC(C)/C=N/NC(=O)c1cnc(C2C3CC4CC(C3)CC2C4)[nH]1 | H37Rv | 6.25 µg/mL | inhibition | - | - | 27% |
| Cc1cc(O)c2c(c1)C(=O)C(c1c(C)cc3c(c1O)C(=O)C=CC3=O)=CC2=O | Streptomycin isoniazid ethambutol-resistant | - | MIC | - | - | 0.1 µg/mL |
| CO[C@H]1/C=C/O[C@@]2(C)Oc3c(C)c(O)c4c(O)c(c(/C=N/N5CCN(C)CC5)c(O)c4c3C2=O)NC(=O)/C(C)=C\C=C\[C@H](C)[C@H](O)[C@@H](C)[C@@H](O)[C@@H](C)[C@H](OC(C)=O)[C@@H]1C | Praha 1 | - | MIC99 | MDR | broth dilution | >8 µM |
| COc1ccccc1/C=N/N=C(\N)c1ccncc1 | 1481 | - | MIC | - | - | 32 µg/mL |
| CN[C@@H]1[C@@H](O)[C@@H](O[C@@H]2[C@@H](O)[C@H](O[C@H]3O[C@H](CN)CC[C@H]3N)[C@@H](N)C[C@H]2N)OC[C@]1(C)O | Praha 1 | - | MIC99 | MDR | broth dilution | 1 µM |
| CC1CN(c2c(F)c([N+](=O)[O-])c3c(=O)c(C(=O)O)cn4c3c2OCC4C)CC(C)O1 | MDR-TB | - | MIC99 | - | agar | 3.7 µM |
| NNC(=O)c1ccncc1 | H37Ra-lux | - | EC90 | - | luminescence | 0.31 µM |
| CN[C@@H]1[C@H](O[C@H]2[C@H](O[C@H]3[C@H](O)[C@@H](O)[C@H](N=C(N)N)[C@@H](O)[C@@H]3N=C(N)N)O[C@@H](C)[C@]2(O)C=O)O[C@@H](CO)[C@H](O)[C@H]1O | ATCC 25177 | - | MIC | - | - | 0.086 µM |
| COc1ccc(OC)c(/C=N/N=C(\N)c2ccncc2)c1 | 1481 | - | MIC | - | - | 128 µg/mL |
| Nc1nc(F)c(F)c2c1NCN2[C@@H]1O[C@H](CO)[C@@H](O)[C@H]1O | SRICK1::ADOK | - | MIC | - | - | 10–100 µg/mL |
| CCOC(=O)c1cnc(C23CC4CC(CC(C4)C2)C3)[nH]1 | H37Rv | 6.25 µg/mL | inhibition | - | - | 0% |
| NNC(=O)c1ccncc1 | 53.3 | - | MIC | Rv2466c W28S | resazurin | 0.025 µg/mL |
| CC[C@@H](CO)NCCN[C@@H](CC)CO | 9449/2007 | - | MIC99 | MDR | broth dilution | 16 µM |
| Cc1[nH]n(-c2ccccc2)c(=O)c1N=Nc1ccc(-c2n[nH]c(=S)n2C)cc1 | H37Rv | - | MIC | - | - | >6.25 µg/mL |
| C/C(=N/NC(=S)N1CCC(C)CC1)c1nccnc1C | ETA-R | - | MIC | - | - | 3.1 µg/mL |
| CCOC(=O)/C(N=Nc1ccc(-c2n[nH]c(=S)n2C)cc1)=C(\C)O | H37Rv | - | MIC | - | - | >6.25 µg/mL |
| C=C[C@H]1CN2CC[C@H]1C[C@H]2[C@H](O)c1ccnc2ccc(OC)cc12 | H37Rv | 128 µg/mL | inhibition | - | BACTEC | 54% |
| COc1ccc2nc3cc(Cl)ccc3c(Nc3cc(CN4CCCC4)c(O)c(CN4CCCC4)c3)c2n1 | DR1 | - | MIC | mmpL3 V681I | resazurin | 5–10 µg/mL |
| Cc1[nH]n(-c2ccc([N+](=O)[O-])cc2)c(=O)c1N=Nc1ccc(-c2n[nH]c(=S)o2)cc1 | H37Rv | - | MIC | - | - | >6.25 µg/mL |
| CC1COc2c(N3CCN(C(c4ccccc4)c4ccc(Cl)cc4)CC3)c(F)c([N+](=O)[O-])c3c(=O)c(C(=O)O)cn1c23 | - | - | MIC | - | agar | 2.63 µM |
| CC1CCCN(CC(O)CN2C[C@@H](C)N(CC(O)CN3CCCC(C)C3)[C@H](C)C2)C1 | H37Rv | 12.8 µg/mL | inhibition | - | BACTEC | 18% |
| NNC(=O)CCc1cnc(C2CCCC2)[nH]1 | H37Rv | 6.25 µg/mL | inhibition | - | - | 20% |
| Nc1ccccc1C(=O)Nc1cccc([N+](=O)[O-])c1 | My 331/88 | - | MIC | - | - | 500 µM |
| Cc1ccc(C)c(/C=N/N=C(\N)c2ccncc2)c1 | H37Rv | - | MIC | - | - | 256 µg/mL |
| O=C(Nc1ccc(Br)cc1)c1ccccc1O | My 331/88 | - | MIC | - | - | 31 µM |
| O=c1ccc2c(ccc3ncccc32)o1 | H37Rv | 12.5 µg/mL | inhibition | - | BACTEC | 10% |
| C[C@H]1COc2c(N3CCSCC3)c(F)cc3c(=O)c(C(=O)O)cn1c23 | - | - | MIC99 | - | agar | 2.14 µM |
| O=c1oc2c(ccc3ccccc32)c(O)c1-c1cccc2ccccc12 | H37Rv | 12.5 µg/mL | inhibition | - | BACTEC | 13% |
| CCOC(=O)c1cnc[nH]1 | H37Rv | - | MIC | - | - | >6.25 µg/mL |
| c1ccc2c(c1)NC(c1ccc3c(c1)Sc1cc(C4Nc5ccccc5N4)ccc1O3)N2 | H37Rv | - | MIC bound | - | BACTEC | >12.5 µg/mL |
| O=C(Nc1ccc(F)cc1)c1ccccc1O | My 331/88 | - | MIC | - | - | 62 µM |
| O=C1C=C(Nc2cccc(Br)c2)c2ccccc2C1=O | H37Rv | 6.25 µg/mL | inhibition | - | resazurin | 39% |
| Nc1nccc2c1ncn2[C@@H]1O[C@H](CO)[C@@H](O)[C@H]1O | SRICK1 | - | MIC | - | - | >100 µg/mL |
| CCN(CC)Cc1nccn1-c1ccc([N+](=O)[O-])cc1C(=O)c1ccccc1Cl | H37Rv | - | MIC bound | - | resazurin | >6.25 µg/mL |
| CC1COc2c(N3CCN(C)CC3)c(F)cc3c(=O)c(C(=O)O)cn1c23 | 9449/2007 | - | MIC99 | MDR | broth dilution | 8 µM |
| O=[N+]([O-])c1cc(Cl)c2[nH]c3c(Cl)cc([N+](=O)[O-])cc3c2c1 | H37Rv | - | MIC | - | BACTEC | 3.13 µg/mL |
| O=C(O)c1cnc(C2C3CC4CC(C3)CC2C4)[nH]1 | H37Rv | - | MIC | - | - | >6.25 µg/mL |
| S=c1[nH][nH]c(=S)s1 | H37Rv | - | MIC bound | - | BACTEC | >12.5 µg/mL |
| COC(=O)N[C@@H]1[C@H](C)O[C@@H](OC2C/C=C(\C)[C@H]3C=C[C@H]4[C@H](O)[C@H](C)C[C@@H](C)[C@@H]4[C@@]3(C)/C(O)=C3/C(=O)OC4(C[C@H](C)C(CO)=C[C@H]4/C=C\2C)C3=O)C[C@@]1(C)N | H37Ra | - | MIC90 | - | MTT | >100 µM |
| Oc1ccc(/C=N/NC(=S)Nc2cccnc2)nc1 | H37Rv | 6.25 µg/mL | inhibition | - | resazurin | 4% |
| O=C(N/N=C/c1c(F)c(F)c(F)c(F)c1F)c1cnc(C2C3CC4CC(C3)CC2C4)[nH]1 | H37Rv | - | MIC | - | - | >6.25 µg/mL |
| O=C(Nc1ccccc1)c1cc(S(=O)(=O)N2CCNC2=O)c(S)cc1Cl | H37Rv | 6.25 µg/mL | inhibition | - | resazurin | -31% |
| Cc1ccc(/C=N/N=C(\N)c2ccncc2)c(C)c1 | 1054 | - | MIC | - | - | 8 µg/mL |
| COc1ccc2c(c1)C(OC)C1c3c(cc4c(c3-2)OCO4)CCN1C.Cl | H37Rv | - | MIC | - | BACTEC | ≥12.5 µg/mL |
| O=[N+]([O-])c1cccc(C2Cc3nc4ccccc4c(-c4ccccc4)c3S2)c1 | H37Rv | - | MIC | - | agar | 4.06 µM |
| CC1=NN(C(=O)CC(=O)Nc2ccccc2F)C(=O)C1N=Nc1ccccc1[N+](=O)[O-] | H37Rv | - | MIC | - | BACTEC | ≥12.5 µg/mL |
| Cc1[nH]n(-c2ccc([N+](=O)[O-])cc2)c(=O)c1N=Nc1ccc(-c2n[nH]c(=S)n2C)cc1 | H37Rv | 6.25 µg/mL | inhibition | - | - | 1% |
| CC1=NN(c2ccccc2)C(=O)C1N=Nc1ccc(S(N)(=O)=O)cc1 | H37Rv | - | MIC | - | BACTEC | ≥12.5 µg/mL |
| N/C(=N\N=C\c1cccc(Br)c1)c1ccncc1 | 1481 | - | MIC | - | - | 64 µg/mL |

A second listing of 6 rows from above:

smiles	strain	dose	read-out	changes	read by	value
NNC(=O)CCc1cnc(C2CCCC2)[nH]1	H37Rv	6.25 µg/mL	inhibition	-	-	20%
C/C(O)=C(\C=N\C(=S)Nc1ccc(S(=O)(=O)Nc2nccs2)cc1)C(=O)Nc1ccccc1C	H37Rv	-	MIC bound	-	resazurin	>6.25 µg/mL
C[C@H]1C[C@@H]1NC(=O)c1cc2sc(N3CCOC(C)(C)C3)nc2s1	H37Rv	-	MIC	-	visual reading	3.44 µM
CC(C)N=c1cc2n(-c3ccc(Cl)cc3)c3ccccc3nc-2cc1Nc1ccc(Cl)cc1	Praha 4	-	MIC99	MDR	broth dilution	0.5 µM
S=c1[nH][nH]c(=S)s1	H37Rv	-	MIC bound	-	BACTEC	>12.5 µg/mL
CC1COc2c(N3CCN(C(c4ccccc4)c4ccc(Cl)cc4)CC3)c(F)c([N+](=O)[O-])c3c(=O)c(C(=O)O)cn1c23	-	-	MIC	-	agar	2.63 µM